From publication PMC4791597 (Scientific Reports, 2016)
Only a part of the results on these compounds is given; other tests are left out.

Amino acid sequences for entries named in this document (tags omitted). A change or cut given only in a name is not applied to a line headed by its entry.
UniProt P04925, whole entry, looked up, stated change not applied: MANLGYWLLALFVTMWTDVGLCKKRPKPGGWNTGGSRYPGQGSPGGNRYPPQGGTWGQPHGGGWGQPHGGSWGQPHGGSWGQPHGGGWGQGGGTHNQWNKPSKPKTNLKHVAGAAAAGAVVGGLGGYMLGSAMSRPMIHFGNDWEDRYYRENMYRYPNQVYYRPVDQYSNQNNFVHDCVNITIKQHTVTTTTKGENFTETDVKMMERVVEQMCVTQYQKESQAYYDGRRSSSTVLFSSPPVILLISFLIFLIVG

Target: ΔCR PrP (Mus musculus, UniProt P04925, DEL105-125)

**Q.** For `C[n+]1ccc(C2=C3C=CC(=N3)C(c3cc[n+](C)cc3)=c3ccc4[n]3[Fe+][n]3c2ccc3C(c2cc[n+](C)cc2)=C2C=CC(=N2)C=4c2cc[n+](C)cc2)cc1` [Fe(III)-TMPyP], which IC50 is on record?
**A.** Its IC50 is 1700 nM.
